Assay results from US5629198A (priority 1991, dated 1997).

Experiments:
MOLT-4 = experiment: Killing effect on uninfected cells (Test Example 1), trypan blue; type: cell-based, human; settings: 3 days
Protocol: The cell killing effects of test substances were determined using a cell strain persistently infected with HIV in MOLT-4 cells and MOLT-4 cells.
MOLT4/HTLV-IIIB, MOLT4/ARV and MOLT4 cell strains were separately inoculated in proportions of 4×10^4 cells/well (200 μl) on a 96-well plate, and the above test substances in various concentrations were separately added in an amount of 20 μl thereto. After each cell sample was cultured for 3 days at 37° C. in the presence of 5% CO2, the culture was diluted to a triple or quadruple amount, thereby counting the number of living cells by a trypan blue dye exclusion test. As a control, 20 μl of PBS were added in place of each test substance. Each numerical value is expressed in terms of the percentage of living cells to the control.

H9/MN cells = experiment: Killing effect on various HIV-infected cells (Test Example 4); type: cell-based; settings: 2 × 10^4 cell/well
Protocol: (§1) MOLT4/HTLV-IIIB cells in a logarithmic growth phase were inoculated on a 96-well flat-bottom plate in a proportion of 2×10^4 cells/well (50 μl), and the above test substances in various concentrations were separately added in an amount of 50 μl thereto. After each cell sample was cultured for 3 days at 37° C. in the presence of 5% CO2, the number of living cells was counted by the MTT assay. More specifically, a 7.5 mg of MTT [3-(4,5-dimethylthiazol-2-yl)-2,5-diphenyl-2H-tetrazolium bromide]/ml phosphate buffer was added in a proportion of 20 μl/well to each well, thereby conducting reaction for 2 hours at 37° C. in the presence of 5% CO2. Then, 150 μl of a lysis solution [10% Triton X-100 solution in acid isopropanol] were added, and the mixture was thoroughly pipetted to solubulize the cells. Thereafter, the absorbance of the solution was measured.
(§2) The killing effects of test substances on H9/MN cells, Hela/LAV cells and OM -10.1 (HL-60/LAV) cells were determined in the same manner as in Test Example 3 (1).

Hela/LAV cells = experiment: as above; type: cell-based; settings: 0.8 × 10^4 cell/well
Protocol: as §1, §2

[1] = test system: OM-10.1 (HL-60/LAV) cells; experiment: as above; type: cell-based; settings: 3 × 10^4 cell/well
Protocol: as §1, §2

HTLV-IIIB in MT-4 cells = experiment: Anti-HIV effect: TCID50 of infectious virus from infected MT-4 cells (Test Example 5); type: cell-based, HIV (HTLV-IIIB); settings: 37.9 μg/ml, 4 days; positive control 3.31 × 10^7
Protocol: The inhibitory effects of test substances on the cytopathy and HIV antigen production of MT-4 cells due to HIV infection were determined.
MT-4 cells belonging to a cell strain persistently infected with HTLV-1 are high in sensitivity to HIV and promptly die out when infected. MT-4/HIV cells which are MT-4 cells infected with HIV are used for screening anti-HIV agents making good use of this nature.
After MT-4 cells (1.2×10^7 cells) were infected for 2 hours at 37° C. with 3.2 ml of HTLV-IIIB (10^7 TCID50 /ml) obtained from a culture supernatant of a cell strain persistently infected with HIV, i.e., […], the cells were washed. After the cells were then inoculated on a 48-well microplate in a proportion of 1×10^5 cells/well, the test substances were separately added in an amount of 100 μl. As a negative control, there was used a culture obtained by adding 3.2 ml of a culture supernatant after culturing MOLT-4 cells for 3 days to MT-4 cells (4.7×10^6 cells), conducting culture for 2 hours at 37° C., washing the cells in the same manner as described above, inoculating them in a proportion of 1×10^5 cells/well and adding PBS in place of the test substances.
Upon elapsed time of 4 days after the culture, each supernatant was assayed on a P24gag protein based on an EIA kit produced by Abbott Labs, and the number of living cells was counted by the Trypan Blue dye exclusion method, and moreover, TCID50 indicative of an actual quantity of infectious virus was calculated.

male ICR mice = experiment: One-administration toxicity test, intraperitoneal (Test Example 9); type: in vivo; settings: single, 21600 min
Protocol: A specimen was dissolved at a protein concentration of 100 mg/ml in a physiological saline (pH 7.0), and the solution was sterilely filtered through a membrane filter of 0.22 μm. The filtrate was intraperitoneally administered to male ICR mice (Charles River Japan, Inc.) aged 5 weeks and 5 days. Defining the day of the administration as 0 day, their weights were measured on the second, fourth, seventh, tenth and fifteenth days.
In each of the toxicity tests, organ autopsy was conducted to all the mice on the fifteenth day after the administration.

## S--HSA--EDC-Hemin: complex of succinylated human serum albumin and EDC-Hemin
MOLT-4; 37.9 μg/ml
  living cells (percentage to the control): 104%
MOLT-4; 75.8 μg/ml
  living cells (percentage to the control): 45%
MOLT-4; 113.7 μg/ml
  living cells (percentage to the control): 2%
H9/MN cells; 25 μg/ml
  number of living cells (% of control): 79%
H9/MN cells; 50 μg/ml
  number of living cells (% of control): 59%
H9/MN cells; 100 μg/ml
  number of living cells (% of control): 3%
H9/MN cells; 200 μg/ml
  number of living cells (% of control): 1%
Hela/LAV cells; 25 μg/ml
  number of living cells (% of control): 91%
Hela/LAV cells; 50 μg/ml
  number of living cells (% of control): 82%
Hela/LAV cells; 100 μg/ml
  number of living cells (% of control): 72%
Hela/LAV cells; 200 μg/ml
  number of living cells (% of control): 32%
Hela/LAV cells; 400 μg/ml
  number of living cells (% of control): 2%
[1]; 25 μg/ml
  number of living cells (% of control): 98%
[1]; 50 μg/ml
  number of living cells (% of control): 93%
[1]; 100 μg/ml
  number of living cells (% of control): 78%
[1]; 200 μg/ml
  number of living cells (% of control): 36%
[1]; 400 μg/ml
  number of living cells (% of control): 4%
HTLV-IIIB in MT-4 cells
  TCID50 (quantity of infectious virus): 2.82 × 10^4 TCID50 /ml
Male ICR mice
  dose showing no toxicity: ≤ 400 mg/kg
